A mixed list of measured activities; the numbers were collected in NIAID ChemDB.

Common to all: tests in culture; organism: HIV-2; method: cytopathic effect / trypan blue; read-out: EC50

ECn: concentration that inhibits the pathogen or its effect by n%.

compound	cell line	strain	result
CSc1ccc(OP(=O)(OC[C@@H]2C=C[C@H](n3cc(C)c(=O)[nH]c3=O)O2)OC[C@@H]2C=C[C@H](n3cc(C)c(=O)[nH]c3=O)O2)cc1	MT-4	ROD	45 µM
CCCOC(=O)C(C)NP(=O)(OC[C@@H]1C=C[C@H](n2cc(C)c(=O)[nH]c2=O)O1)Oc1ccccc1	CEM + CEM TK-	ROD	0.08 µM
Cc1cn([C@@H]2O[C@H](CO[Si](C)(C)C(C)(C)C)C3(OS(=O)(=O)C=C3N)[C@H]2O[Si](C)(C)C(C)(C)C)c(=O)n(CC(=O)N[C@@H](C)C(=O)O)c1=O	MT-4	ROD	32 µM
CC(C)(C)[Si](C)(C)OC[C@H]1O[C@@H](n2cnc3c(=O)n(CC(=O)O)cnc32)[C@H](O[Si](C)(C)C(C)(C)C)[C@@H]1O	MT-4	ROD	24 µM
C[C@H](Cn1cnc2c(N)ncnc21)OCP(=O)(O)O	MT-4	ROD	4.9 µM
Cc1cn([C@@H]2O[C@H](CO[Si](C)(C)C(C)(C)C)C3(OS(=O)(=O)C=C3N)[C@H]2O)c(=O)[nH]c1=O	MT-4	ROD	>40 µM
CS(=O)(=O)c1ccc(OP(=O)(OC[C@@H]2C=C[C@H](n3ccc(=O)[nH]c3=O)O2)OC[C@@H]2C=C[C@H](n3ccc(=O)[nH]c3=O)O2)cc1	MT-4	ROD	>250 µM
COC(=O)Cn1c(=O)c(C)cn([C@H]2C[C@H](N=[N+]=[N-])[C@@H](CO[Si](C)(C)C(C)(C)C)O2)c1=O	MT-4	ROD	>10 µM
Cc1cn([C@@H]2O[C@H](CO[Si](C)(C)C(C)(C)C)[C@@]3(OS(=O)(=O)C=C3N)[C@H]2O[Si](C)(C)C(C)(C)C)c(=O)[nH]c1=O	MT-4	ROD	>4 µg/mL
Cc1cn([C@@H]2O[C@H](CO[Si](C)(C)C(C)(C)C)C3(OS(=O)(=O)C=C3N)[C@H]2O[Si](C)(C)C(C)(C)C)c(=O)n(CC(=O)N[C@H](C(=O)OCc2ccccc2)C(C)C)c1=O	MT-4	ROD	>50 µM
CS(=O)(=O)c1ccc(OP(=O)(OC[C@@H]2CC[C@H](n3ccc(=O)[nH]c3=O)O2)OC[C@@H]2CC[C@H](n3ccc(=O)[nH]c3=O)O2)cc1	MT-4	ROD	>250 µM
Cc1cn([C@@H]2O[C@@H](COC(=O)c3ccccc3)C3(OS(=O)(=O)C=C3N)C2O[Si](C)(C)C(C)(C)C)c(=O)[nH]c1=O	MT-4	ROD	>100 µg/mL
Nc1nc(N)c2ncn(CCOCP(=O)(O)O)c2n1	MT-4	LAV-2	1.2 µM
COC(=O)CCn1c(=O)c(C)cn([C@@H]2O[C@H](CO[Si](C)(C)C(C)(C)C)[C@@H](O)[C@H]2O[Si](C)(C)C(C)(C)C)c1=O	MT-4	ROD	>10 µM
Cc1cn([C@@H]2O[C@H](CO[Si](C)(C)C(C)(C)C)C3(OS(=O)(=O)C=C3N)[C@H]2O[Si](C)(C)C(C)(C)C)c(=O)n(C)c1=O	MT-4	ROD	>200 µM
Cc1cn([C@@H]2O[C@@H](CO[Si](C)(C)C(C)(C)C)C3(OS(=O)(=O)C=C3N)[C@@H]2O[Si](C)(C)C(C)(C)C)c(=O)[nH]c1=O	MT-4	ROD	>100 µg/mL
Nc1nc2c(ncn2CCOCP(=O)(O)O)c(=O)[nH]1	MT-4	LAV-2	2.2 µM
NC(=O)c1ncn([C@@H]2O[C@H](CO)[C@@H](O)[C@H]2O)n1	MT-4		>500 µM
Cc1cn([C@@H]2O[C@H](CO[Si](C)(C)C(C)(C)C)[C@@H](O[Si](C)(C)C(C)(C)C)[C@H]2O)c(=O)n(CC(=O)ON)c1=O	MT-4	ROD	>2 µM
C[C@H](Cn1cnc2c(N)nc(N)nc21)OCP(=O)(O)O	MT-4	ROD	0.18 µM
CCCC(C)(C)[Si](C)(C)OC[C@H]1O[C@@H](n2cc(C)c(=O)n(CC(=O)O)c2=O)[C@H](O[Si](C)(C)C(C)(C)CCC)[C@@H]1O	MT-4	ROD	>10 µM
CS(=O)(=O)c1ccc(OP(=O)(OC[C@@H]2C=C[C@H](n3ccc(N)nc3=O)O2)OC[C@@H]2C=C[C@H](n3ccc(N)nc3=O)O2)cc1	MT-4	ROD	6 µM
Nc1nc2c(ncn2[C@H]2C[C@H](O)[C@@H](CO)O2)c(=O)[nH]1	MT-4		>500 µM
O=c1ccn([C@H]2C=C[C@@H](CO)O2)c(=O)[nH]1	MT-4	ROD	>20 µM
Nc1ncnc2c1ncn2[C@H]1C[C@@H](O)[C@@H](CO)O1	MT-4		>500 µM
CSc1ccc(OP(=O)(OC[C@@H]2C=C[C@H](n3cnc4c(N)ncnc43)O2)OC[C@@H]2C=C[C@H](n3cnc4c(N)ncnc43)O2)cc1	MT-4	ROD	89 µM
Nc1ncnc2c1ncn2CCOCP(=O)(O)O	MT-4	LAV-2	5.5 µM
Cc1cn([C@@H]2O[C@H](C)C3(OS(=O)(=O)C=C3N)[C@H]2O[Si](C)(C)C(C)(C)C)c(=O)[nH]c1=O	MT-4	ROD	>100 µg/mL
CS(=O)(=O)c1ccc(OP(=O)(OC[C@@H]2CC[C@H](n3cnc4c(N)ncnc43)O2)OC[C@@H]2CC[C@H](n3cnc4c(N)ncnc43)O2)cc1	MT-4	ROD	84 µM
Cc1cn([C@@H]2O[C@H](CO)C3(OS(=O)(=O)C=C3N)[C@H]2O)c(=O)[nH]c1=O	MT-4	ROD	>300 µM

An empty or dashed field is not shown. Lines come from different laboratories, so protocols vary.